Experiment [1] has as its target GST-rSV2A 468–594, rat, Q02563 468-594.
Experiment [2] has as its target T1, GST-rSV2B 413–535, rat, Q63564 413-535.
T1 sequence: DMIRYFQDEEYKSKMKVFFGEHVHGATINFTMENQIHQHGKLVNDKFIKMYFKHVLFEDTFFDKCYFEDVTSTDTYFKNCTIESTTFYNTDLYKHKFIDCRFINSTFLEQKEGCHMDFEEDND

In the case of “HC-fragment of BoNT/A fused to a C-terminal Streptag (HCAS)”, the absolute binding in mol % in experiment [1] came to 7.4 mol %; in experiment [2], 5.5 mol %.
